The record followed here is publication PMC9296231.

The target of experiment [1] is SARS2 S trimer Omicron BA.2 (SARS-CoV-2) (UniProt P0DTC2). Kind of experiment: BLI. To be noted: bispecific antibody.
The target is the same in experiment [2]. Kind of experiment: ELISA. As to conditions: bispecific antibody. (ELISA stands for enzyme-linked immunosorbent assay.)

F6-ab8-Fc (from UniProt P01857) returned a Kd in experiment [1] of 6.2 nM. In experiment [2], this substance had an EC50 of 14.3 nM.

As usually defined, the Kd is the free concentration of one partner at which half of the binding sites on the other are occupied at equilibrium, for simple one-to-one binding. By EC50 is commonly meant the concentration at which the effect is half-maximal. A high value points to a less potent agent.
